Assay [1] concerns hepatitis C replicon. Description: hepatitis C replicon EC50 assay. Type of assay: cell-based, hepatitis C virus. The following applies: tested form: HCl. (Replicon systems follow genome replication, usually without infectious particles.)
Assay [2] has as its target NS3/NS4 complexes (Hepatitis C virus genotype 1a, UniProt P27958). The following applies: NS3-NS4 activity; 23° C., pH 7.5, 25 μM NS4A peptide; tested form: HCl.

Amino acid sequences for entries named in this document (tags omitted). Residues count along the entry.
UniProt P27958, 1027-1657 limits assumed: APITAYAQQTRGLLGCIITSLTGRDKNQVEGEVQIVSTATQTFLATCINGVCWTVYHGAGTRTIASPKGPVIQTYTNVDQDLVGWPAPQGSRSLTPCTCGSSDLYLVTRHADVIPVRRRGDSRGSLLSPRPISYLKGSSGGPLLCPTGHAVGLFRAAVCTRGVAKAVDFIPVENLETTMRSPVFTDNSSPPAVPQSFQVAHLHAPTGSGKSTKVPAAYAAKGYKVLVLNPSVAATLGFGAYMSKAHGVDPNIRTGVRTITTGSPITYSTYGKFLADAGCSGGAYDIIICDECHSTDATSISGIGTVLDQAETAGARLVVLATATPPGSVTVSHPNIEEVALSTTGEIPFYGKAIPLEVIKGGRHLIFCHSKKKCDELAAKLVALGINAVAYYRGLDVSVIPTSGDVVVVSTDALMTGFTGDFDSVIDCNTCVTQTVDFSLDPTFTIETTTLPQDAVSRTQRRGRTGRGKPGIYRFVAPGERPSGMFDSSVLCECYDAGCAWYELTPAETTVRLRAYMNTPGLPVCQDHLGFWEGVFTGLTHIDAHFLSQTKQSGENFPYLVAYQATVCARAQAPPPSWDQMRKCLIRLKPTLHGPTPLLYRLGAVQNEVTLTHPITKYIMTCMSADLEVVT

Structures are written as SMILES. pEC50, pIC50: −log10 of the molar value.

Turning to `CC(C)n1c(O[C@@H]2C[C@H]3C(=O)N[C@]4(C(=O)NS(=O)(=O)C5(C)CC5)C[C@H]4/C=C\CCCCC[C@H](N)C(=O)N3C2)nc2c(-c3nc(C4CCC4)cs3)cccc21`, the pEC50 in assay [1] was < 7.00. For the same compound, in assay [2], the pIC50 is > 8.00.

As a reminder, the pEC50 is the negative decadic logarithm of the EC50, by convention in mol/L. The low end stands for a large EC50, the high end for a small EC50. In general, pIC50 refers to the IC50 on a negative log10 scale, so that one unit is a factor of ten. A low value points to a high IC50.
